The results in this text go back to patent US12428405B2, “Chalcone-based chemotherapeutic compound for triple negative breast cancer” (QATAR UNIVERSITY, priority 2019, dated 2025).

The experiment relates to MDA-MB-231. As to the kind of experiment: Migration (wound healing) assay. To be noted: 5 μM. Type of experiment: cell-based.

`O=Cc1ccc(N(CCCl)CCCl)cc1`: under “24 hours post treatment, control = 100, Mean ± SEM (N = 2 × 2)”, the “% migration” value came to 70.53 ± 1.95%. Besides, where the note is “MDA-MB-231, 24 hours”, the “inhibition of cell migration” value amounted to 29.5±1.95%.
